The values below come from PubChem BioAssay AID720554 (ICCB-Longwood Screening Facility, Harvard Medical School, 2013).

The list shows a part of the results, in another mix than the full data. Calls of active or inactive are those of the source. No stated cut-off is given here; in the data, active means inhibition mostly above about 83% (no sharp cut-off); inactive means mostly below about 52%.

The subject of the assay is acyl-homoserine lactone synthase BmaI1 (Burkholderia mallei ATCC 23344). Kind of assay: BmaI1 acyl-homoserine lactone synthase inhibition – biochemical, fluorescence intensity, with counterscreen (AID 720554). The following applies: BmaI1 enzyme assay, stronger effect = higher value, concentration not given here. Background: Counterscreens check selectivity or assay interference.
What is called inhibition is the relative decrease from the control value, in per cent. As to `CP(=O)(N1CCOCC1)N1CCOCC1`, the inhibition is inactive: 11.5%.

As for `CCc1ccc(OP(C)(=O)Nc2cccnc2)cc1` (configuration not stated), the inhibition was inactive: 9.5%.
